Results on one compound are retold here after ChEMBL document CHEMBL3232793, “Fused heterocyclic compounds bearing bridgehead nitrogen as potent HIV-1 NNRTIs. Part 1: design, synthesis and biological evaluation of novel 5,7-disubstituted pyrazolo[1,5-a]pyrimidine derivatives” (Bioorg Med Chem, 2014).

This assay addresses Human immunodeficiency virus type 1 reverse transcriptase (Human immunodeficiency virus 1, UniProt Q72547). Nature of the assay: Inhibition of recombinant HIV1 reverse transcriptase assessed as inhibition of biotin-dUTP incorporation in to poly [A] x oligo[dT]15 by ELISA. In a few lines:
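Colorimetric kit (Roche) ELISA. Homopolymer template/primer bound to the microplate, with biotin-dUTP as the labelled nucleotide and 4 ng recombinant HIV-1 RT per well. Compounds tested at several concentrations.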
(ELISA stands for enzyme-linked immunosorbent assay.)

Turning to `Cc1cc(C#N)cc(C)c1Oc1nc(Nc2ccc(C#N)cc2)nc(N)c1Br` [ETRAVIRINE], the IC50 stood at 83 nM.

The IC50 is the concentration at which inhibition is half-maximal.
